Record: PubChem BioAssay AID504761 (Drosophila RNAi Screening Center, 2011)

- Assay: 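Fly genes whose silencing reduces dengue virus type 2 infection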 (primary screen)
- Cell system: D.Mel-2 cells from Drosophila
- Knock-down reagent: long dsRNA against Drosophila genes
- Treatment: infection with dengue virus type 2; dose and infection time not stated
- Measured: 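Per well on two replicate plates, imaging gave the percent of cells positive for viral envelope protein, ranked by infection, and a nuclear count of cells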
- Reading the numbers: infection score: higher = more virus-infected cells
- Active means: 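Very low infection ranking in both replicate wells (chance probability at most 0.065), then a retest showing infection dropped 1.5-fold or more at p below 0.05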
- Meaning of the calls: active = confirmed: knock-down lowers infection; inactive = not picked or not confirmed
The screen tested about 22,000 reagents; shown is an unselected part of those that have a named target and a result. Over the whole deposit, 116 (0.52%) are marked active. 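Calls depend on retest data that are not deposited; infection was ranked per plate without normalising between plates; the unit of the infection score is not given.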 Unmarked entries are inactive. Reagents against one gene are numbered here. Further read-outs or replicates are left out here. Not stated in the record: the amount of reagent, the time to read-out.

Dna2 (DNA replication helicase/nuclease 2) → infection score, replicate 1 = 2.38
CG2816 #1 → infection score, replicate 1 = 4.82
CG2816 #2 → infection score, replicate 1 = 2.37
CG15107 → infection score, replicate 1 = 1.08
CG13455 → infection score, replicate 1 = 1.42
PsGEF (Protostome-specific GEF) #1 → infection score, replicate 1 = 1.87
PsGEF (Protostome-specific GEF) #2 → infection score, replicate 1 = 1.25
CG15126 → infection score, replicate 1 = 3.37
CG13564 → infection score, replicate 1 = 25.9
CG1622 #1 → infection score, replicate 1 = 1.29
CG1622 #2 → infection score, replicate 1 = 1.05
eIF4G2 (eukaryotic translation initiation factor 4G2) #1 → infection score, replicate 1 = 2.18
eIF4G2 (eukaryotic translation initiation factor 4G2) #2 → infection score, replicate 1 = 21.6
slou (slouch) #1 → infection score, replicate 1 = 5.01
slou (slouch) #2 → infection score, replicate 1 = 4.14

2 entries from above, set out differently.
Target gene	reagent	infection score, replicate 1
Dna2 (DNA replication helicase/nuclease 2)	1	2.38
CG2816	1	4.82
